Measured values from several laboratories, pooled; numbers as filed in NIAID ChemDB.

All rows: whole-cell or culture tests; species: Human cytomegalovirus; endpoint: EC50

Two numbers with a dash give a range or band. Lines come from different laboratories, so protocols vary. Blank or dashed fields: not listed here. ECn: concentration that inhibits the pathogen or its effect by n%.

| SMILES | method | cell line | strain | result |
|---|---|---|---|---|
| Nc1ncnc2c1ncn2[C@H]1C[C@@H](O)[C@H](CO)O1 | cytopathic effect | MRC-5 | AD169 | >1000 µM |
| CC#CC=C[C@H]1O[C@@H](n2cnc3c(N)ncnc32)[C@H](O)[C@@H]1O |  | HEL | DAVIS | 30 µM |
| CC(C)[C@H](N)C(=O)OCC(COC(=O)[C@@H](N)C(C)C)OCn1cnc2c(=O)[nH]c(N)nc21 | plaque count | HFF |  | 2.9 µM |
| O=c1[nH]c(=S)n([C@@H]2O[C@H](CO)[C@@H](O)[C@@H]2O)cc1/C=C/c1ccccc1 | plaque count | MRC-5 | T-137 | >213 µM |
| CCCCCCc1cc2cn(C3CCCO3)c(=O)nc2o1 | plaque count | HEL | AD169 | >50 µM |
| Nc1ncc2c(ncn2COC(CO)CO)n1 | plaque count | HFF | AD169 | 0.5 µM |
| CC(=O)OC[C@H]1O[C@@H](c2ccccc2)C[C@@H]1OC(C)=O | plaque count | HEL | DAVID | >100 µg/mL |
| OC[C@H]1O[C@@H](n2c(Br)nc3cc(Cl)c(Cl)cc32)[C@H](O)[C@@H]1O | plaque count | MRC-5 | 1038RC | 6 µM |
| O=C(O)P(=O)(O)O | plaque count | HFF | Isolate Helebrand (resistant) | 94.01 µM |
| Nc1nc2c(ncn2COC2CCP(=O)([O-])OC2)c(=O)[nH]1 | plaque count | MRC-5 | AD169 | 5 µg/mL |
| Cn1c(=O)ccn(/C=C2/CC2(CO)CO)c1=O | plaque count | HFF |  | >100 µM |
| CC(C)[C@H](N)C(=O)NCC(=O)OCC(COC(=O)CNC(=O)[C@@H](N)C(C)C)OCn1cnc2c(=O)[nH]c(N)nc21 | plaque count | HFF |  | 4.6 µM |
| Nc1cc2c(=O)c(C(=O)O)cn(C3CC3)c2cc1N1CCN(c2cccc(C(F)(F)F)c2)CC1 | plaque count | HEL | AD169 | 0.86 µg/mL |
| Nc1nc2c(ncn2COC(CO)CO)c(=O)[nH]1 | plaque count | MRC-5 | AD169 | 3.31 µM |
| O=C(NCc1ccc(Cl)cc1)c1cn(N2CCOCC2)c2ccc(CN3CCOCC3)cc2c1=O | plaque count | HFF | DAVIS | 0.6 µM |
| CC(C)NS(=O)(=O)c1ccccc1C(=O)N/N=C/c1ccc(-c2cccs2)cc1 | plaque count | HEL | DAVIS | >100 µM |
| CCCCCCc1cc2cn(C3CCCC3)c(=O)nc2o1 | plaque count | HEL | AD169 | >50 µM |
| Nc1nc(N)c2nnn(C[C@@H](CO)OCP(=O)(O)O)c2n1 | cytopathic effect | HEL | DAVIS | >100 µg/mL |
| Nc1cc2c(=O)c(C(=O)O)cn(C3CC3)c2nc1N1CCN(c2ccccn2)CC1 | plaque count | HFF | AD169 | 0.9 µM |
| CSc1nnc(-c2ccccc2S(=O)(=O)NC(C)C)o1 | plaque count | HEL | DAVIS | >100 µM |
| Cc1ccc(S(=O)(=O)NC(N)=NCCC[C@H](NC(=O)OCc2cccnc2)C(=O)N[C@H](C(=O)N[C@H](C=O)Cc2ccccc2)C(C)(C)C)cc1 | plaque count | HELF | HE | 0.49 µM |
| Nc1nc2c(ncn2COC(CO)CCP(=O)([O-])O)c(=O)[nH]1 | plaque count | MRC-5 | AD169 | 2 µg/mL |
| Nc1nc2c(ncn2COC(CO)CO)c(=O)[nH]1 | plaque count |  | RCdelta97.19 | 19.6 µM |
| CN(C)n1cc(C(=O)O)c(=O)c2cc(N)c(N3CCN(c4ccccn4)CC3)cc21 | plaque count | HFF | AD169 | 1.2 µM |
| Nc1nc2c(ncn2COC(CO)CO)c(=O)[nH]1 | plaque count |  | AD169 | 1.5 µM |
| Nc1nc2c(ncn2COC(CO)CO)c(=O)[nH]1 | plaque count |  | 11 isolates | 44.35 µM |
| COc1cccc(N2CCN(C3=Nc4c(F)cccc4[C@H](CC(=O)O)N3c3cc(C(F)(F)F)ccc3OC)CC2)c1 | plaque count |  | Clinical isolate 8 | 0.002 µM |
| CCCCCCCCCCc1cc2cn(C3CCCO3)c(=O)nc2o1 | plaque count | HEL | DAVIS | >200 µM |
| Nc1nc(=S)n([C@@H]2O[C@H](CO)[C@@H](O)[C@@H]2O)cc1/C=C/Br | plaque count | MRC-5 | 93-1R | >213 µM |
| Nc1nc2c(ncn2COC(CO)CO)c(=O)[nH]1 | plaque count | HFF | AD169 | 3 µM |
| Cn1cc(C(=O)NCc2ccc(Cl)cc2)c(=O)c2cc(CN3CCOCC3)ccc21 | plaque count | HFF | SC | 1.1 µM |
| Nc1cc2c(=O)c(C(=O)O)cn(C3CC3)c2cc1N1CCN(c2nc3ccccc3s2)CC1 | plaque count | HEL | DAVIS | 0.0076 µg/mL |
| Nc1cc2c(=O)c(C(=O)O)cn(C3CC3)c2cc1N1CCN(c2ccc3ccccc3n2)CC1 | plaque count | HFF | AD169 | 1.7 µM |
| CCCCCCCCc1cc2cnc(OCCC(C)C)nc2o1 | plaque count | HEL | AD169 | >5 µM |
| Nc1nc2c(ncn2COC(CO)CO)c(=O)[nH]1 | ELISA | MRC-5 | Isolate 1558 | 3.25 µM |
| Cc1ccccc1CNC(=O)c1ccc2cnccc2n1 |  |  |  | 0.3 µg/mL |
| C=CCO[C@@H]1[C@@H](OCC=C)[C@H](Cc2ccccc2)O[C@@H]2CO[C@@H](c3ccccc3)O[C@@H]12 | plaque count | HEL | DAVIS | >2 µg/mL |
| Cc1ccc(S(=O)(=O)NNC(=O)c2ccccc2S(=O)(=O)NC(C)C)cc1 | plaque count | HEL | DAVIS | >100 µM |
| CC(NC(=S)Nc1ccc(NC(=O)c2ccccc2F)cc1C#N)c1ccc(F)cc1 | ELISA | HFF | AD169 | >10 µg/mL |
| COCCOCn1cc(C(N)=S)c2c(N)ncnc21 | plaque count |  |  | 0.4–1 µM |
| Nc1nc2c(ncn2COC(CO)CO)c(=O)[nH]1 | plaque count | HEL | AD169 | 15.7 µM |
| CO[C@H]1[C@H]2O[Si](C(C)C)(C(C)C)O[Si](C(C)C)(C(C)C)OC[C@@H]2O[C@@H]1c1ccccc1 | plaque count | HEL | AD169 | 1.3 µg/mL |
| Nc1ncnc2c1ncn2[C@@H]1O[C@@H](CO)[C@H](O)[C@H]1O | cytopathic effect | MRC-5 | AD169 | >1000 µM |
| Cn1cc(C(=O)O)c(=O)c2cc(N)c(N3CCN(c4nccs4)CC3)cc21 | plaque count | HEL | DAVIS | 1.45 µg/mL |
| OC[C@H]1O[C@@H](c2ccccc2)C[C@@H]1O | plaque count | HEL | DAVID | >100 µg/mL |
| Nc1cc2c(=O)c(C(=O)O)cn(C3CC3)c2cc1N1CCN(c2ccccn2)CC1 | plaque count | HFF | AD169 | 1 µM |
| CCc1cn([C@H]2C[C@H](O)[C@@H](CO)O2)c(=S)[nH]c1=O | plaque count | MRC-5 | 93-1R | >277.6 µM |
| CCCCc1cc2cn(CCC(C)C)c(=O)nc2o1 | plaque count | HEL | AD169 | >50 µM |
| O=C(O)c1cn(C2CC2)c2nc(N3CCN(c4ccccn4)CC3)ccc2c1=O | plaque count | HFF | AD169 | 2.3 µM |
| CCCCCCCc1cc2cn(CCC(C)C)c(=O)nc2o1 | plaque count | HEL | DAVIS | 50 µM |
| CC(C)NS(=O)(=O)c1ccccc1C(=O)N/N=C/c1ccc(Br)cc1 | plaque count | HEL | DAVIS | >100 µM |
| Nc1nc(=S)n([C@@H]2O[C@H](CO)[C@@H](O)[C@@H]2O)cc1CO | plaque count | MRC-5 | T-137 | 149.5 µM |
| OC[C@H]1O[C@@H](n2c(Br)nc3cc(Cl)c(Cl)cc32)[C@H](O)[C@@H]1O | plaque count | HFF | Isolate Helebrand (resistant) | 2.03 µM |
| Nc1nc2c(ncn2COC(CO)CO)c(=O)[nH]1 | ELISA | MRC-5 | AD169 | 2.7 µM |
| O=c1ccn([C@H]2C[C@@H](O)[C@H](CO)O2)c(=O)[nH]1 | cytopathic effect | MRC-5 | AD169 | >100 µM |
| CCCCCCc1cc2cnc(OC3CCCCC3)nc2o1 | plaque count | HEL | AD169 | >5 µM |

4 of the rows above, restated:

COCCOCn1cc(C(N)=S)c2c(N)ncnc21 ; method: plaque count ; result: 0.4–1 µM
Nc1nc2c(ncn2COC(CO)CO)c(=O)[nH]1 ; method: plaque count ; strain: AD169 ; result: 1.5 µM
CCc1cn([C@H]2C[C@H](O)[C@@H](CO)O2)c(=S)[nH]c1=O ; method: plaque count ; cell line: MRC-5 ; strain: 93-1R ; result: >277.6 µM
O=C(O)c1cn(C2CC2)c2nc(N3CCN(c4ccccn4)CC3)ccc2c1=O ; method: plaque count ; cell line: HFF ; strain: AD169 ; result: 2.3 µM